{"source": "PubChem BioAssay AID1259414 (Drosophila RNAi Screening Center, 2018)", "test": "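Host factors increasing or decreasing Wolbachia levels in cultured fly cells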 (primary screen)", "cells": "Drosophila JW18 cells infected with Wolbachia", "reagent": "long dsRNA against Drosophila genes, 0.25 µg dsRNA per well of a 384-well plate", "time to read-out": "5 days", "treatment": "cells persistently infected with Wolbachia before knock-down; no added drug", "read-out": "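Imaged fluorescence in situ signal for Wolbachia 23S rRNA per DAPI-counted host cell, given as a robust z-score within each plate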", "direction": "Wolbachia per cell robust z: higher = more Wolbachia per host cell than the plate typical", "call rule": "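Hit when robust z is 1.5 or more, or -1.5 or less, in at least two of three replicates; excludes dsRNAs with several or no targets, genes not expressed in JW18 and well A1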", "note": "The screen tested about 24,000 reagents; shown is an unselected part of those with a known target gene and a result. Over the whole deposit, about 1,210 (5%) got an active call. 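Inactive calls also include excluded dsRNAs with several or no targets, genes unexpressed in JW18, and well A1, regardless of score.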 Unmarked entries are inactive."}
{"target": "ATPsynF", "DRSC id": "DRSC04482", "Wolbachia per cell robust z, rep 1": 0.506, "Wolbachia per cell robust z, rep 2": -0.0126, "Wolbachia per cell robust z, rep 3": -0.44}
{"target": "CG41561", "DRSC id": "DRSC38629", "Wolbachia per cell robust z, rep 1": 0.109, "Wolbachia per cell robust z, rep 2": -0.0493, "Wolbachia per cell robust z, rep 3": 0.305}
{"target": "CG32536", "DRSC id": "DRSC28001", "Wolbachia per cell robust z, rep 1": "-1.55 (active)", "Wolbachia per cell robust z, rep 2": 0.164, "Wolbachia per cell robust z, rep 3": -1.68}
{"target": "CG15021", "DRSC id": "DRSC08475", "Wolbachia per cell robust z, rep 1": 0.876, "Wolbachia per cell robust z, rep 2": 0.345, "Wolbachia per cell robust z, rep 3": 0.641}
{"target": "CG15021", "DRSC id": "DRSC25139", "Wolbachia per cell robust z, rep 1": -2.94, "Wolbachia per cell robust z, rep 2": 0.78, "Wolbachia per cell robust z, rep 3": 0.747}
{"target": "Tmem131", "DRSC id": "DRSC07154", "Wolbachia per cell robust z, rep 1": -1.13, "Wolbachia per cell robust z, rep 2": 0.987, "Wolbachia per cell robust z, rep 3": 0.703}
{"target": "CG14070", "DRSC id": "DRSC02373", "Wolbachia per cell robust z, rep 1": 1.36, "Wolbachia per cell robust z, rep 2": -1.86, "Wolbachia per cell robust z, rep 3": 1}
{"target": "CG17267", "DRSC id": "DRSC15207", "Wolbachia per cell robust z, rep 1": 0.617, "Wolbachia per cell robust z, rep 2": -0.215, "Wolbachia per cell robust z, rep 3": -0.516}
{"target": "Cyp4c3", "DRSC id": "DRSC16631", "Wolbachia per cell robust z, rep 1": -0.787, "Wolbachia per cell robust z, rep 2": -0.323, "Wolbachia per cell robust z, rep 3": -1.83}
{"target": "Cyp4c3", "DRSC id": "DRSC23642", "Wolbachia per cell robust z, rep 1": 0.723, "Wolbachia per cell robust z, rep 2": -0.253, "Wolbachia per cell robust z, rep 3": 1.08}
{"target": "Cyp313a2", "DRSC id": "DRSC16625", "Wolbachia per cell robust z, rep 1": 0.204, "Wolbachia per cell robust z, rep 2": 1.09, "Wolbachia per cell robust z, rep 3": -6.4}
{"target": "LysE", "DRSC id": "DRSC08675", "Wolbachia per cell robust z, rep 1": "-0.411 (active)", "Wolbachia per cell robust z, rep 2": -1.57, "Wolbachia per cell robust z, rep 3": -2.99}
{"target": "Tcs4", "DRSC id": "DRSC19587", "Wolbachia per cell robust z, rep 1": -0.227, "Wolbachia per cell robust z, rep 2": 1.01, "Wolbachia per cell robust z, rep 3": -0.356}
{"target": "Tcs4", "DRSC id": "DRSC28855", "Wolbachia per cell robust z, rep 1": -0.957, "Wolbachia per cell robust z, rep 2": -0.918, "Wolbachia per cell robust z, rep 3": -1.1}
{"target": "lncRNA:CR34024", "DRSC id": "DRSC38811", "Wolbachia per cell robust z, rep 1": 0.455, "Wolbachia per cell robust z, rep 2": 0.685, "Wolbachia per cell robust z, rep 3": 1.01}
{"target": "ATPsynG", "DRSC id": "DRSC02928", "Wolbachia per cell robust z, rep 1": -6.84, "Wolbachia per cell robust z, rep 2": -8.47, "Wolbachia per cell robust z, rep 3": 0.282}
{"target": "lobo", "DRSC id": "DRSC14662", "Wolbachia per cell robust z, rep 1": 0.424, "Wolbachia per cell robust z, rep 2": 0.162, "Wolbachia per cell robust z, rep 3": -3.8}
{"target": "lobo", "DRSC id": "DRSC14663", "Wolbachia per cell robust z, rep 1": -1.5, "Wolbachia per cell robust z, rep 2": 0.473, "Wolbachia per cell robust z, rep 3": -4.63}
{"target": "lobo", "DRSC id": "DRSC29681", "Wolbachia per cell robust z, rep 1": -1.52, "Wolbachia per cell robust z, rep 2": -0.761, "Wolbachia per cell robust z, rep 3": -0.907}
{"target": "Vhl", "DRSC id": "DRSC07716", "Wolbachia per cell robust z, rep 1": -0.57, "Wolbachia per cell robust z, rep 2": 0.774, "Wolbachia per cell robust z, rep 3": -0.0619}
{"target": "Vhl", "DRSC id": "DRSC28332", "Wolbachia per cell robust z, rep 1": 0.465, "Wolbachia per cell robust z, rep 2": 0.0515, "Wolbachia per cell robust z, rep 3": -0.738}
{"target": "EMC4", "DRSC id": "DRSC11638", "Wolbachia per cell robust z, rep 1": -1.29, "Wolbachia per cell robust z, rep 2": -0.283, "Wolbachia per cell robust z, rep 3": 0.615}
{"target": "EMC4", "DRSC id": "DRSC29652", "Wolbachia per cell robust z, rep 1": 0.796, "Wolbachia per cell robust z, rep 2": 0.979, "Wolbachia per cell robust z, rep 3": 0.447}
{"target": "CG31128", "DRSC id": "DRSC13675", "Wolbachia per cell robust z, rep 1": 0.206, "Wolbachia per cell robust z, rep 2": 1.24, "Wolbachia per cell robust z, rep 3": 1.22}
{"target": "und", "DRSC id": "DRSC03629", "Wolbachia per cell robust z, rep 1": -1.51, "Wolbachia per cell robust z, rep 2": -7.61, "Wolbachia per cell robust z, rep 3": 0.577}
{"target": "CG12134", "DRSC id": "DRSC06109", "Wolbachia per cell robust z, rep 1": 0.762, "Wolbachia per cell robust z, rep 2": -0.297, "Wolbachia per cell robust z, rep 3": 0.843}
{"target": "CG12134", "DRSC id": "DRSC24332", "Wolbachia per cell robust z, rep 1": -0.516, "Wolbachia per cell robust z, rep 2": 0.0302, "Wolbachia per cell robust z, rep 3": -0.543}
{"target": "CG14417", "DRSC id": "DRSC18638", "Wolbachia per cell robust z, rep 1": 0.56, "Wolbachia per cell robust z, rep 2": 0.298, "Wolbachia per cell robust z, rep 3": 0.275}
{"target": "Polr3H", "DRSC id": "DRSC10817", "Wolbachia per cell robust z, rep 1": 0.717, "Wolbachia per cell robust z, rep 2": -4.83, "Wolbachia per cell robust z, rep 3": -1.27}
{"target": "CG14650", "DRSC id": "DRSC12236", "Wolbachia per cell robust z, rep 1": -0.931, "Wolbachia per cell robust z, rep 2": 0.196, "Wolbachia per cell robust z, rep 3": 1.26}
{"target": "CG14650", "DRSC id": "DRSC23822", "Wolbachia per cell robust z, rep 1": -2.11, "Wolbachia per cell robust z, rep 2": -0.0263, "Wolbachia per cell robust z, rep 3": 0.646}

Not a retest: entries from further up.
{"target": "CG12134", "DRSC id": "DRSC06109", "Wolbachia per cell robust z, rep 1": 0.762, "Wolbachia per cell robust z, rep 2": -0.297, "Wolbachia per cell robust z, rep 3": 0.843}
{"target": "CG12134", "DRSC id": "DRSC24332", "Wolbachia per cell robust z, rep 1": -0.516, "Wolbachia per cell robust z, rep 2": 0.0302, "Wolbachia per cell robust z, rep 3": -0.543}
{"target": "CG14417", "DRSC id": "DRSC18638", "Wolbachia per cell robust z, rep 1": 0.56, "Wolbachia per cell robust z, rep 2": 0.298, "Wolbachia per cell robust z, rep 3": 0.275}
{"target": "Polr3H", "DRSC id": "DRSC10817", "Wolbachia per cell robust z, rep 1": 0.717, "Wolbachia per cell robust z, rep 2": -4.83, "Wolbachia per cell robust z, rep 3": -1.27}
